Measured values as given in ChEMBL document CHEMBL1201862, “PubChem BioAssay data set” (2004).
Some of the results follow. Only a part of the results of these assays is listed, not drawn at random. The source made the active and inactive calls. The rule behind the calls is not given here.

Test: qHTS Assay for Inhibitors of Hepatitis C Virus (HCV).
Format: functional
For `O=[N+]([O-])c1cc([N+](=O)[O-])c(OC2CCCCC2O)c([N+](=O)[O-])c1` (stereo unspecified), the Potency was “inactive”.
